In patent US20220153873A1, “Anti-influenza B virus neuraminidase antibodies and uses thereof” (ICAHN SCHOOL OF MEDICINE AT MOUNT SINAI, published 2022):

B1: 3G1 antibody (murine IgG2a, hybridoma-produced) (antibody, V domains shown)
VH: QVQLQQSGAELMKPGASVKISCKATGYKFTSYWIGWVKQRPGHGLEWCGEIFPGSGSINYNEKFKGKATFTADTSSNTAYLQLTSLTSEDSAVYYCARGEDYYGSSYGAMDYWGQGTSLTVSS
VL: DVQITQSPSYLAASPGETITINCRASKSISKYVAWYQEKPGRTNKVLIYSGSILSFGNPSRFSGSGSGTDFTLTISSLEPEDFAMYYCQQHNEYPWTFGGGTKLEIK
notes: also called mAb 3G1
B2: 4F11 antibody (murine IgG2b, hybridoma-produced) (antibody, V domains shown)
VH: DVKLVESGGDLVKPGGSLKLSCAASGFTFSAYSMSWVRQTPERRLEWVATINTGGSFTYYPDSVKGRFTISRDNAKNTLYLQMSSLKSEDTAMYFCTRVSDYGNSAYFPYWGQGTLVIVSA
VL: QVVLTQSPALISASPGEKVTMTCSASSNVNYMSWYQQRPRSSPKPWIYLTSKLASGVPPRFSGSGSGTSYSLTISSMEAEDVATYYCQQWSSDPQTFGGGTKVEIK
notes: also called mAb 4F11; 4F11 Hybridoma
B3: 1F4 antibody (murine IgG2a, hybridoma-produced) (antibody, V domains shown)
VH: QVHLQQSGSELRSPGSSVKLSCKDFDSEVFPIVYMRWIRQKPGHGFEWIGDILPSFGRTIYGEKFEDKATLDADTVSNTAYLELNSLTSEDSAIYYCARGDHGNWLAYWGQGTLVTVSA
VL: DIVMTQSHKFMSTSVGDRVTITCKASQDVSTAVAWYQQKPGQSPKLLIYWASTRHTGVPNRFTGIISGTDYTLTISSVQAEDLALYYCQQHYSAPWTFGGGTKLEIK
notes: also called mAb 1F4; IF4
B4: 4B2 antibody (murine IgG2a, hybridoma-produced) (antibody, V domains shown)
VH: QIQLVQSGPELKKPGETVKISCKASGFTFTDYPMHWVKQAPGKSLKWMGWINTETEEPTYSDDFKGRFALSLETSASTTYLQINNLKNEDTATYFCARSGYYYGSTYAWFGYWGQGTLVTVSA
VL: DVVMTQIPLSLPVSLGDQASISCRSSQSLIHTNGDTFLHWYLQKPGQSPKLLIYKVSNRFSGVPDRFTGGGSGTDFTLKISRVEAEDLGIYFCSQSALFPYTFGGGTNLEIK
notes: also called mAb 4B2

target: recombinant neuraminidase (rNA) of B/Malaysia/2506/04 (influenza B virus B/Malaysia/2506/04)

Binder	Kd	koff
B1	0.532 nM	0.000255 s⁻¹
B2	0.152 nM	3.76e-05 s⁻¹
B3	0.819 nM	4.25e-05 s⁻¹
B4	1.75 nM	0.000364 s⁻¹
